Record: PubChem BioAssay AID1259414 (Drosophila RNAi Screening Center, 2018)
The screen tested about 24,000 reagents; below is a random part of those with a known target gene and a result. Of all reagents, about 1,210 (5%) were called active. 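Inactive calls also include excluded dsRNAs with several or no targets, genes unexpressed in JW18, and well A1, regardless of score.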 Reagents against one gene are numbered here. A plus sign joins genes that one reagent is predicted to hit.

Aim: 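Genome-wide screen for host control of endosymbiont load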 (primary screen)
Cells: Drosophila JW18 cells infected with Wolbachia
Reagent: long dsRNA against Drosophila genes, 0.25 µg dsRNA per well of a 384-well plate
Duration: 5 days
Conditions: cells persistently infected with Wolbachia before knock-down; no added drug
Detection: 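Imaged fluorescence in situ signal for Wolbachia 23S rRNA per DAPI-counted host cell, given as a robust z-score within each plate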
Reading the numbers: Wolbachia per cell robust z: higher = more Wolbachia per host cell than the plate typical
Active means: 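Hit when robust z is 1.5 or more, or -1.5 or less, in at least two of three replicates; excludes dsRNAs with several or no targets, genes not expressed in JW18 and well A1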

gene knocked down | reagent | Wolbachia per cell robust z, rep 1 | Wolbachia per cell robust z, rep 2 | Wolbachia per cell robust z, rep 3 | activity call
CG1840 (GeneID 32150) | 1 | 0.498 | 0.556 | 0.348 | inactive
CG1840 (GeneID 32150) | 2 | -0.828 | -0.0719 | -0.299 | inactive
Lkb1 (GeneID 41673) | 1 | -0.213 | 0.298 | 0.261 | inactive
Ppox (GeneID 42939) | 1 | -2.63 | -2.34 | 0.769 | active
Papst2 (GeneID 39914) | 1 | -1.35 | -2.48 | -1.03 | inactive
Papst2 (GeneID 39914) | 2 | -0.206 | -1.02 | -0.221 | inactive
CG13989 (GeneID 33869) | 1 | 0.401 | -1.94 | 0.674 | inactive
fig (GeneID 43511) | 1 | 0.0215 | -0.244 | 0.219 | inactive
fig (GeneID 43511) | 2 | -0.226 | -0.293 | -0.57 | inactive
fig (GeneID 43511) | 3 | 0.314 | 1.03 | -0.985 | inactive
CG3294 (GeneID 33677) | 1 | -1.93 | 0.156 | 0.304 | inactive
CG3294 (GeneID 33677) | 2 | 0.212 | 1.21 | -0.588 | inactive
L (GeneID 36609) | 1 | 0.0856 | 0.0816 | -1.55 | inactive
L (GeneID 36609) | 2 | 0.373 | -0.275 | 0.627 | inactive
L (GeneID 36609) | 3 | -0.353 | -1.1 | -0.456 | inactive
AstC-R1 (GeneID 40020) | 1 | 0.762 | 1.1 | -0.36 | inactive
AstC-R1 (GeneID 40020) | 2 | -0.869 | -0.305 | -1.02 | inactive
CG33695 + cana | 1 | -0.341 | 0.832 | -7.98 | inactive

8 of these entries, reformatted.
{"gene knocked down":"fig (GeneID 43511)","reagent":1,"Wolbachia per cell robust z, rep 1":0.0215,"Wolbachia per cell robust z, rep 2":-0.244,"Wolbachia per cell robust z, rep 3":0.219,"activity call":"inactive"}
{"gene knocked down":"fig (GeneID 43511)","reagent":2,"Wolbachia per cell robust z, rep 1":-0.226,"Wolbachia per cell robust z, rep 2":-0.293,"Wolbachia per cell robust z, rep 3":-0.57,"activity call":"inactive"}
{"gene knocked down":"fig (GeneID 43511)","reagent":3,"Wolbachia per cell robust z, rep 1":0.314,"Wolbachia per cell robust z, rep 2":1.03,"Wolbachia per cell robust z, rep 3":-0.985,"activity call":"inactive"}
{"gene knocked down":"CG3294 (GeneID 33677)","reagent":1,"Wolbachia per cell robust z, rep 1":-1.93,"Wolbachia per cell robust z, rep 2":0.156,"Wolbachia per cell robust z, rep 3":0.304,"activity call":"inactive"}
{"gene knocked down":"CG3294 (GeneID 33677)","reagent":2,"Wolbachia per cell robust z, rep 1":0.212,"Wolbachia per cell robust z, rep 2":1.21,"Wolbachia per cell robust z, rep 3":-0.588,"activity call":"inactive"}
{"gene knocked down":"L (GeneID 36609)","reagent":1,"Wolbachia per cell robust z, rep 1":0.0856,"Wolbachia per cell robust z, rep 2":0.0816,"Wolbachia per cell robust z, rep 3":-1.55,"activity call":"inactive"}
{"gene knocked down":"L (GeneID 36609)","reagent":2,"Wolbachia per cell robust z, rep 1":0.373,"Wolbachia per cell robust z, rep 2":-0.275,"Wolbachia per cell robust z, rep 3":0.627,"activity call":"inactive"}
{"gene knocked down":"L (GeneID 36609)","reagent":3,"Wolbachia per cell robust z, rep 1":-0.353,"Wolbachia per cell robust z, rep 2":-1.1,"Wolbachia per cell robust z, rep 3":-0.456,"activity call":"inactive"}

The listing continues.
gene knocked down | reagent | Wolbachia per cell robust z, rep 1 | Wolbachia per cell robust z, rep 2 | Wolbachia per cell robust z, rep 3 | activity call
Nup62 (GeneID 36830) | 1 | 0.737 | -0.855 | 1.54 | inactive
CG17883 (GeneID 3355139) | 1 | -0.315 | -0.959 | -0.699 | inactive
ND-MNLL (GeneID 31697) | 1 | -0.861 | 0.641 | -0.727 | inactive
CG14965 (GeneID 38388) | 1 | 0.82 | -0.0531 | -0.463 | inactive
CG34332 (GeneID 2768895) | 1 | -0.314 | 0.263 | 0.582 | inactive
byn (GeneID 39349) | 1 | -2.9 | 0.65 | 0.807 | inactive
byn (GeneID 39349) | 2 | 0.0558 | 0.257 | 0.17 | inactive
CG5273 (GeneID 31021) | 1 | -0.525 | 0.615 | 0.926 | inactive
Sdc (GeneID 37447) | 1 | 1.17 | 0.0264 | 1.05 | inactive
Sdc (GeneID 37447) | 2 | 1.61 | 1.44 | 0.766 | inactive
Sdc (GeneID 37447) | 3 | 1.09 | 0.199 | 0.338 | inactive
Sdc (GeneID 37447) | 4 | 0.314 | 0.372 | 0.673 | inactive
CG5721 (GeneID 37084) | 1 | 0.493 | -0.752 | -0.745 | inactive
Upf3 (GeneID 37792) | 1 | 0.681 | -1.92 | -0.319 | inactive
Upf3 (GeneID 37792) | 2 | 0.973 | -4.34 | 0.83 | inactive
Hr78 (GeneID 40378) | 1 | 0.672 | 1.58 | -0.589 | inactive
Hr78 (GeneID 40378) | 2 | 0.692 | -0.755 | 0.576 | inactive
CG2278 (GeneID 31751) | 1 | 0.0788 | 1.06 | 0.206 | inactive
CG33253 (GeneID 2768889) | 1 | 0.984 | 0.191 | -3.02 | inactive
CG33253 (GeneID 2768889) | 2 | 0.717 | 0.83 | 0.496 | inactive
Mics1 (GeneID 40898) | 1 | 0.673 | 0.513 | -1.08 | inactive
Vha68-3 (GeneID 34695) | 1 | -0.276 | -3.36 | -0.185 | inactive
Vha68-3 (GeneID 34695) | 2 | -8.88 | -0.574 | -0.242 | inactive
defl (GeneID 39141) | 1 | -3.05 | -4.24 | 0.364 | active
hoe2 (GeneID 33700) | 1 | -1.23 | -2.48 | 0.391 | inactive
betaTub85D (GeneID 41124) | 1 | 1.39 | 1.55 | 1 | inactive
betaTub85D (GeneID 41124) | 2 | 1.07 | 2.24 | 0.276 | inactive
CG7179 (GeneID 34059) | 1 | 0.903 | -0.525 | -0.639 | inactive
